In article PMC3993263:
Construct, isoform or probe ends are uncertain for at least one entry. At least one verdict was read from the data and is not stated in words by the source. Where a protein sequence is shown, tags need not be part of it.

Target: T1, RaaS (UniProt O86312)
T1 sequence (looked up, limits assumed): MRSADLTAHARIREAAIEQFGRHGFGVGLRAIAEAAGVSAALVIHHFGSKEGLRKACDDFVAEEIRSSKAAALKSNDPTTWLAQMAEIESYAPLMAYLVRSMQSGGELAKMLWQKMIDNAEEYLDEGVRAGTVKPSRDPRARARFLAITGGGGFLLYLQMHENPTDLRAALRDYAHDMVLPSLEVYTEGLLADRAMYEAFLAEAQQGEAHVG
Experiment: EMSA
Conditions: 20 nM DNA, 170 nM RaaS (Fig 4C), recombinant protein, protein details: 6xHis (pET15-Tev), label: 32P (Fig 4C)

Question: Does “GGGATGAACGTACGTTTAATATCCTGAACATGCGTTCAG / GGGCTGAACGCATGTTCAGGATATTAAACGTACGTTCAT [Pr14 (WT)]” bind?
Answer: binds
